Data: PMC5454942, “The Potential of Triterpenoids from Loquat Leaves (Eriobotrya japonica) for Prevention and Treatment of Skin Disorder” (International Journal of Molecular Sciences, 2017)
“And” between values parts separate entries of the source, which are not always exact repeats. Equal values may be shown once.

Tested on: B16 melanoma cells
Test: Anti-melanogenesis assay (melanin content)
Assay type: cell-based, mouse
Description: This assay was performed as described by Arung et al.. The mouse melanoma cell line B16 was obtained from the Riken Bioresource Center Cell Bank (Tsukuba, Japan). The B16 melanoma cells were maintained in Eagle’s Minimal Essential Medium (EMEM, Nissui Chemical, Tokyo) supplemented with 10% (v/v) fetal bovine serum (FBS; Gibco, Carlsbad, CA, USA) and 0.09 mg/mL theophylline (Sigma-Aldrich, St. Louis, MO, USA). […] After 24 h, test samples were dissolved in DMSO (<0.2% per well) and sample solution were added to each well. Arbutin (Tokyo Kasei Kogyo, Tokyo) was used as a positive control. The cells were incubated for an additional 48 h, and then the medium was replaced with fresh medium containing each sample again. After 24 h, the melanin content and the cell viability were measured using a microplate reader (BioTek-ELX800, BioTek Instruments, Winooski, VT, USA) at 405 nm and 570 nm, respectively. Cell viability was measured using the MTT (3-(4,5-dimethylthiazol-2-yl)-2,5-diphenyltetrazolium bromide) method.

| Structure (SMILES) | S.I (selectivity index, CC50 value/IC50 value) |
| --- | --- |
| C[C@H]1[C@H](C)CC[C@]2(C(=O)O)CC[C@]3(C)C(=CC[C@@H]4[C@@]5(C)CCC(=O)C(C)(C)[C@@H]5CC[C@]43C)[C@H]12 [Compound 13, 3-oxours-12-en-28-oic acid] | 0.5 |
| C[C@@H]1CC[C@]2(C(=O)O)CC[C@]3(C)C(=CC[C@@H]4[C@@]5(C)C[C@@H](O)[C@H](O)C(C)(C)[C@@H]5CC[C@]43C)[C@@H]2[C@]1(C)O [Compound 11, tormentic acid] | > 1.0 and 1.3 |
| COC(=O)[C@]12CCC(C)(C)C[C@@H]1C1=CC[C@@H]3[C@@]4(C)C[C@@H](O)[C@H](O)C(C)(C)C4CC[C@@]3(C)[C@]1(C)CC2 (some centres unmarked) [Compound 5, Methyl maslinate] | > 1.0 and 1.4 |
| COC(=O)[C@]12CC[C@@H](C)[C@H](C)[C@H]1C1=CC[C@@H]3[C@@]4(C)C[C@@H](O)[C@H](O)C(C)(C)[C@@H]4CC[C@@]3(C)[C@]1(C)CC2 [Compound 6, methyl corosolate] | > 1.0 and 1.2 |
| C[C@@H]1CC[C@]2(C(=O)O)CC[C@]3(C)C(=CC[C@@H]4[C@@]5(C)CCC(=O)C(C)(C)[C@@H]5[C@H](O)C[C@]43C)[C@@H]2[C@]1(C)O [Compound 14, 6β,19-dihydroxyurs-12-en-3-oxo-28-oic acid] | 0.7 |
